# Test results published in patent publication USRE37793E1, “Method and composition for inhibiting bacteria” (Winthrop University Hospital, priority 1995, dated 2002).
# How the values were obtained:
# [1] = tested on: methicillin-resistant S. aureus (MRSA); assay: Agar diffusion, zones of inhibition; format: cell-based, Staphylococcus aureus; conditions: MRSA (27 isolates); discs Bi(No3)3 157 μg, BAL 186 μg, BisBAL 157/31 μg; 24 h, 37° C.
# [2] = tested on: vancomycin-resistant enterococci (VRE); assay: Agar diffusion, zones of inhibition; format: cell-based; conditions: VRE (10 isolates); discs Bi(No3)3 157 μg, BAL 186 μg, BisBAL 157/31 μg; 24 h, 37° C.
# [3] = tested on: Helicobacter pylori; assay: Agar diffusion in a microaerophilic atmosphere, ten clinical isolates; format: cell-based; conditions: H. pylori, Bi^3+ 157 μg, BAL 186 μg, BisBAL 157/31 μg
smiles,measurement,setting,value
OCC(S)CS (stereo not drawn),Zones of Inhibition,[1],≦6.0 mm
same,Zones of Inhibition,[2],≦6.0 mm
same,Zone diameter of inhibition,[3],little or no zones of inhibition
